34 compounds from PubChem BioAssay AID1903 (Southern Research Specialized Biocontainment Screening …, 2009) can be followed below.

Chains of the proteins cited; added tags and fusions are not shown.
UniProt P03070, whole entry, looked up: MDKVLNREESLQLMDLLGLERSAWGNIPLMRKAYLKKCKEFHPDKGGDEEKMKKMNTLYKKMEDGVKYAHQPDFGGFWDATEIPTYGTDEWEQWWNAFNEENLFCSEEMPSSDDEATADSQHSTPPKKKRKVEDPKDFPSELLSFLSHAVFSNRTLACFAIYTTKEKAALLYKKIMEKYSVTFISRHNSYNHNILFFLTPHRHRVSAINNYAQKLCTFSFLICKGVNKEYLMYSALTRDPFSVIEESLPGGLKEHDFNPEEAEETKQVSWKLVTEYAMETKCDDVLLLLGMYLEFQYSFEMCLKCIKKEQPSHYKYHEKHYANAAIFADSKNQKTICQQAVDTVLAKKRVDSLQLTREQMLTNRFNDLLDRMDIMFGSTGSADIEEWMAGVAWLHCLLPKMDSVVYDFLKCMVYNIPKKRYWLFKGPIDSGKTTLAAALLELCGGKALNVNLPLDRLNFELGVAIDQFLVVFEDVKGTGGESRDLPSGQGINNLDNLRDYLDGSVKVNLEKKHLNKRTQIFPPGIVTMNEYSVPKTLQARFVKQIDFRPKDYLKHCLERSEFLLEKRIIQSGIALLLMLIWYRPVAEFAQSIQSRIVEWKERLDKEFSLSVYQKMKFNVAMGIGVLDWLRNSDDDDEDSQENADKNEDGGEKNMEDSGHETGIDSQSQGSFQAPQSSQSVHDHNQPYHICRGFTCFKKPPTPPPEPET

This is one part of the list. Measured potencies and affinities stand elsewhere. Activity calls are given as the source filed them. No rule for the calls is given here.

For the assay, the target named is Large T antigen (Simian virus 40) (UniProt P03070). As to the kind of experiment: SV40 large T antigen inhibitors, biochemical (AID 1903). The conditions noted are these: SV40 large T antigen ATPase/helicase inhibition assay; at 20 µM; active compounds read high.
Regarding `O=C(NC1CCS(=O)(=O)C1)NP(=S)(Oc1ccccc1)Oc1ccccc1` (centres undefined), the inhibition is inactive: -0.43%.
The result for `CCNC(=S)/N=C(\N)N[N+](=O)[O-]` reads inactive: 11.9%; that for `CCOC(=O)NC(Sc1ccccc1)C(Cl)(Cl)Cl` (centres undefined), inactive: 6.49%.
`Cc1ccc(NP(=O)(Oc2cccc(C)c2)Oc2cccc(C)c2)nc1`: the inhibition is inactive: 4.44%.
`c1ccc(-c2nn[nH]n2)c(-c2nn[nH]n2)c1`: the inhibition was inactive: 6.14%.
Turning to `Cc1ccc(OP(=O)(Nc2ccccn2)Oc2ccc(C)cc2)cc1`, the inhibition is inactive: 13%.
Consider `CC(=O)NC(SC(=S)N(CC(C)C)CC(C)C)C(Cl)(Cl)Cl` (centres undefined), for which the inhibition was inactive: 29%.
The result for `COC(=O)c1cc2c(s1)N=C(c1ccccc1)N(C)P2(=O)N1CCOCC1` (centres undefined) reads inactive: -1.42%; that for `CCC(=O)N1C2C3N(C(=O)CC)C1C1N(C(=O)CC)C(C(N1C(=O)CC)N3C(=O)CC)N2C(=O)CC`, inactive: 3.63%.
Turning to `O=C(OC1CN2CCC1CC2)c1ccccc1` (centres undefined), the inhibition was inactive: 3.95%.
The result for `CN(C)C(=O)Oc1noc2ccccc12` reads inactive: 9.34%; that for `O=c1c2cc([N+](=O)[O-])ccc2[nH]c2c([N+](=O)[O-])cc([N+](=O)[O-])cc12`, inactive: 25.3%; that for `Cc1ccccc1OP(=O)(Nc1ccccn1)Oc1ccccc1C`, inactive: 6.18%.
The result for `CCOc1ccc(C2=NCC(CBr)S2)cc1` (centres undefined) reads inactive: 5.97%; that for `O=P1(Nc2nc3ccc(Cl)cc3s2)COc2ccccc2O1` (centres undefined), inactive: -1.38%; that for `CC(C)(C)C(=O)NC(Sc1ccccc1)C(Cl)(Cl)Cl` (centres undefined), inactive: 3.61%.
The result for `CC(=O)c1ccc(N2CC2c2ccncc2)cc1` (centres undefined) reads inactive: 17.4%; that for `C[C@@H]1C=CCP(=O)(Oc2ccccc2)O1` (some centres undefined), inactive: 3.73%; that for `C[C@H]1OP(=O)(Oc2ccccc2)C[C@@H]2O[C@@H]21` (some centres undefined), inactive: 21%.
On to `CC(=O)Nc1ccc([As](=O)(O)O)c(O)c1`, for which the inhibition is inactive: 6.28%.
The result for `O=P(Nc1nccs1)(c1ccccc1)c1ccccc1` reads inactive: 12.5%; that for `CC(C)C(=O)NC(Sc1ccccc1)C(Cl)(Cl)Cl` (centres undefined), inactive: 17.1%; that for `c1nnnn1CCn1cnnn1`, inactive: 3.1%.
On to `CN(C)C1(CNC(=O)c2ccc(Cl)c(S(N)(=O)=O)c2)CCCCC1`, for which the inhibition was inactive: 9.99%.
The result for `O=P(Nc1ccccn1)(c1ccc(Br)cc1)c1ccc(Br)cc1` reads inactive: 3.39%; that for `C[C@H]1OP(=O)(Oc2ccccc2)[C@H](O)[C@H](O)[C@H]1N=[N+]=[N-]` (some centres undefined), inactive: 9.03%.
The result for `O=P(Nc1nc2ccccc2s1)(c1ccccc1)c1ccccc1` reads inactive: 6.53%.
In the case of `O=[N+]([O-])c1ncn(CCn2cnc([N+](=O)[O-])n2)n1`, the inhibition is inactive: 14.9%.
The result for `CC(=O)NC(SC(=S)N(C)C)C(Cl)(Cl)Cl` (centres undefined) reads inactive: 3.39%.
The result for `O=[N+]([O-])c1ccc(O)c(/C=N/Nc2ccc([N+](=O)[O-])cc2[N+](=O)[O-])c1` reads inactive: 10.5%.
The result for `O=[As](O)(c1ccccc1)c1ccc(O)cc1` reads inactive: 0.21%.
In the case of `Nc1ccc([As](=O)(O)c2ccc([N+](=O)[O-])cc2)cc1`, the inhibition was inactive: 12.3%.
As to `C(Cc1nn[nH]n1)Cc1nn[nH]n1`, the inhibition was inactive: 8.99%.
The result for `O=C(OC1CN2CCC1CC2)c1cccc(Cl)c1` (centres undefined) reads inactive: 2.79%.

The inhibition is the drop in the measured response relative to a control, in per cent.
